## Sequence variants of PSTVd loop 15 after infection

Reference: Wu et al. 2024, doi:10.1371/journal.ppat.1012142.

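A pool of all variants was put on leaves of three Nicotiana benthamiana plants. Progeny were sequenced from the inoculated region (day 5), the margin of the inoculated leaf (day 10) and systemic leaves (day 12).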

Region: loop 15 of PSTVd (intermediate strain), upper and lower strand joined, each 5' to 3', the first 7 letters being the upper strand, closing pairs included. Wild type: GGAAACCGCUACUAC. Varied positions (N): GGAAACCGNNNNNNC.

Values are reads per thousand in the sample; higher means more abundant, 0 means not found. Each site shows the three plants. "Pool" is the share in the plasmid pool used as inoculum, on the same scale. The inoculated region was read from the minus strand, the other sites from the plus strand. IR is the inoculated region, LM the leaf margin, Sys the systemic leaves.

| sequence | pool | IR | LM | Sys |
|---|---|---|---|---|
| GGAAACCGAUAAAGC | 0.352 | 0.0655 / 0.145 / 0.0381 | 0.0162 / 0.0223 / 0 | 0 / 0 / 0 |
| GGAAACCGAUAAAUC | 0.336 | 0.409 / 0.418 / 0.324 | 0.0970 / 0.156 / 0.100 | 0.0322 / 0 / 0 |
| GGAAACCGAUAACAC | 0.304 | 0.262 / 0.353 / 0.552 | 0.162 / 0.0668 / 0.120 | 0 / 0.0454 / 0.114 |
| GGAAACCGAUAACCC | 0.336 | 0.115 / 0.0643 / 0.0762 | 0.0162 / 0 / 0.0401 | 0.0161 / 0 / 0.0228 |
| GGAAACCGAUAACGC | 0.208 | 0.0655 / 0.0964 / 0.171 | 0.0162 / 0.0223 / 0 | 0 / 0 / 0 |
| GGAAACCGAUAACUC | 0.256 | 0.311 / 0.193 / 0.190 | 0.146 / 0.156 / 0.100 | 0.0322 / 0 / 0 |
| GGAAACCGAUAAGAC | 0.336 | 0.147 / 0.112 / 0.0952 | 0 / 0 / 0 | 0 / 0 / 0 |
| GGAAACCGAUAAGCC | 0.192 | 0.0819 / 0.0643 / 0.114 | 0 / 0.0223 / 0.0200 | 0 / 0 / 0 |
| GGAAACCGAUAAGGC | 0.240 | 0.0819 / 0.129 / 0.114 | 0.0323 / 0.0223 / 0 | 0.0161 / 0 / 0 |
| GGAAACCGAUAAGUC | 0.256 | 0.115 / 0.0643 / 0.133 | 0 / 0 / 0 | 0 / 0 / 0 |
| GGAAACCGAUAAUAC | 0.240 | 0.393 / 0.434 / 0.438 | 0.0970 / 0.178 / 0.120 | 0.0644 / 0.106 / 0.160 |
| GGAAACCGAUAAUCC | 0.112 | 0.459 / 0.273 / 0.419 | 0.0647 / 0 / 0.100 | 0.0322 / 0.106 / 0.0912 |
| GGAAACCGAUAAUGC | 0.288 | 0.213 / 0.225 / 0.267 | 0.0808 / 0.0891 / 0.0801 | 0.0483 / 0.0756 / 0.0912 |
| GGAAACCGAUAAUUC | 0.304 | 0.328 / 0.450 / 0.438 | 0.162 / 0.156 / 0.140 | 0.0322 / 0.0908 / 0.0912 |
| GGAAACCGAUACAAC | 0.240 | 0.360 / 0.305 / 0.152 | 0.0970 / 0.111 / 0.180 | 0.0322 / 0.0303 / 0.0456 |
| GGAAACCGAUACACC | 0.240 | 0.115 / 0.0482 / 0.0571 | 0 / 0 / 0 | 0.0161 / 0 / 0 |
| GGAAACCGAUACAGC | 0.256 | 0.0491 / 0.112 / 0.0381 | 0 / 0 / 0.0200 | 0 / 0 / 0 |
| GGAAACCGAUACAUC | 0.192 | 0.229 / 0.289 / 0.419 | 0.0970 / 0.134 / 0.120 | 0.0805 / 0 / 0 |
| GGAAACCGAUACCAC | 0.256 | 0.311 / 0.289 / 0.305 | 0.0970 / 0.0668 / 0.160 | 0.0805 / 0.0605 / 0.137 |
| GGAAACCGAUACCCC | 0.272 | 0.0491 / 0.0482 / 0.152 | 0 / 0 / 0 | 0 / 0 / 0 |
| GGAAACCGAUACCGC | 0.272 | 0.0983 / 0.0482 / 0.114 | 0.0323 / 0 / 0 | 0 / 0 / 0 |
| GGAAACCGAUACCUC | 0.224 | 0.328 / 0.386 / 0.381 | 0.0970 / 0.111 / 0.200 | 0.0483 / 0.0605 / 0.0228 |
| GGAAACCGAUACGAC | 0.176 | 0.0655 / 0.0964 / 0.0762 | 0.0162 / 0 / 0.0401 | 0 / 0 / 0 |
| GGAAACCGAUACGCC | 0.224 | 0.0655 / 0.112 / 0.0571 | 0 / 0 / 0 | 0 / 0 / 0 |
| GGAAACCGAUACGGC | 0.192 | 0.0655 / 0.0643 / 0.0762 | 0.0162 / 0 / 0 | 0 / 0 / 0 |
| GGAAACCGAUACGUC | 0.144 | 0.0655 / 0.0803 / 0.133 | 0.0162 / 0 / 0.0601 | 0 / 0 / 0 |
| GGAAACCGAUACUAC | 0.432 | 26.4 / 26.5 / 21.9 | 17.1 / 10.5 / 10.6 | 8.47 / 6.64 / 5.77 |
| GGAAACCGAUACUCC | 0.112 | 0.229 / 0.305 / 0.286 | 0.0485 / 0.156 / 0.180 | 0.0483 / 0.0605 / 0.0912 |
| GGAAACCGAUACUGC | 0.272 | 0.278 / 0.225 / 0.533 | 0.129 / 0.0891 / 0.220 | 0.0161 / 0.0756 / 0.0684 |
| GGAAACCGAUACUUC | 0.128 | 0.328 / 0.209 / 0.362 | 0.129 / 0.245 / 0.100 | 0.0966 / 0.0454 / 0.0684 |
| GGAAACCGAUAGAAC | 0.208 | 0.229 / 0.241 / 0.495 | 0.146 / 0.111 / 0.240 | 0 / 0.0454 / 0.0684 |
| GGAAACCGAUAGACC | 0.240 | 0.246 / 0.369 / 0.495 | 0.113 / 0.0668 / 0.120 | 0.0161 / 0 / 0 |
| GGAAACCGAUAGAGC | 0.208 | 0.311 / 0.482 / 0.324 | 0.0970 / 0.178 / 0.200 | 0.0483 / 0.0151 / 0.137 |
| GGAAACCGAUAGAUC | 0.176 | 0.344 / 0.305 / 0.362 | 0.162 / 0.0223 / 0.0801 | 0.0322 / 0.0454 / 0.160 |
| GGAAACCGAUAGCAC | 0.240 | 0.377 / 0.273 / 0.400 | 0.129 / 0.0445 / 0.160 | 0.0322 / 0.0151 / 0.0912 |
| GGAAACCGAUAGCCC | 0.256 | 0.0655 / 0.0803 / 0.190 | 0.0162 / 0.0223 / 0 | 0 / 0 / 0 |
| GGAAACCGAUAGCGC | 0.272 | 0.180 / 0.177 / 0.0571 | 0 / 0 / 0 | 0 / 0 / 0 |

Excerpt, the final 4 entries:

sequence,pool,IR,LM,Sys
GGAAACCGAUAGAUC,0.176,0.344 / 0.305 / 0.362,0.162 / 0.0223 / 0.0801,0.0322 / 0.0454 / 0.160
GGAAACCGAUAGCAC,0.240,0.377 / 0.273 / 0.400,0.129 / 0.0445 / 0.160,0.0322 / 0.0151 / 0.0912
GGAAACCGAUAGCCC,0.256,0.0655 / 0.0803 / 0.190,0.0162 / 0.0223 / 0,0 / 0 / 0
GGAAACCGAUAGCGC,0.272,0.180 / 0.177 / 0.0571,0 / 0 / 0,0 / 0 / 0

Sequences that differ at fixed positions probably stem from PCR or sequencing errors, and defective variants can be carried along by functional ones. For reference, wild type rose from 33.9 per thousand in the pool to 202, 200, 159 (inoculated region), 724, 746, 710 (leaf margin) and 856, 883, 880 (systemic leaves). With 43,870-66,106 reads a sample, very low values are single reads.